Assay results: paper PMC9687286, “Hydrophobic Rose Bengal Derivatives Exhibit Submicromolar-to-Subnanomolar Activity against Enveloped Viruses” (Biomolecules, 2022)

Tests used:
Assay type in all cases: cell-based
Conditions in all cases: ratio CC50 / EC50
SARS-CoV-2 strain PIK35 = test system: SARS-CoV-2 strain PIK35
CHIKV strain Nic = test system: CHIKV strain Nic
HIV-1 strain NL4-3 = test system: HIV-1 strain NL4-3

SMILES: O=c1nc(NO)ccn1[C@@H]1O[C@H](CO)[C@@H](O)[C@H]1O [NHC, N^4-hydroxycytidine, reference compound]
- SI, SARS-CoV-2 (SARS-CoV-2 strain PIK35): >21
- SI, CHIKV (CHIKV strain Nic): >4

SMILES: CCCCCCCCCCOC(=O)c1c(Cl)c(Cl)c(Cl)c(Cl)c1-c1c2cc(I)c(=O)c(I)c-2oc2c(I)c(O)c(I)cc12 [2d, Rose Bengal N-Decyl Ester, Monosodium Salt]
- SI, SARS-CoV-2 (SARS-CoV-2 strain PIK35): 9
- SI, HIV (HIV-1 strain NL4-3): 4.8
- SI, CHIKV (CHIKV strain Nic): 28,571

SMILES: CCCCCCCCOC(=O)c1c(Cl)c(Cl)c(Cl)c(Cl)c1-c1c2cc(I)c(=O)c(I)c-2oc2c(I)c(O)c(I)cc12 [2c, Rose Bengal N-Octyl Ester, Monosodium Salt]
- SI, SARS-CoV-2 (SARS-CoV-2 strain PIK35): 10
- SI, HIV (HIV-1 strain NL4-3): 4.8

SMILES: CCCCCCCCCCCCOC(=O)c1c(Cl)c(Cl)c(Cl)c(Cl)c1-c1c2cc(I)c(=O)c(I)c-2oc2c(I)c(O)c(I)cc12 [2e, Rose Bengal N-Dodecyl Ester, Monosodium Salt]
- SI, SARS-CoV-2 (SARS-CoV-2 strain PIK35): >2
- SI, CHIKV (CHIKV strain Nic): >2632

SMILES: O=C(O)c1c(Cl)c(Cl)c(Cl)c(Cl)c1-c1c2cc(I)c(=O)c(I)c-2oc2c(I)c(O)c(I)cc12 [compound 1, Rose Bengal, disodium salt, reference compound]
- SI, SARS-CoV-2 (SARS-CoV-2 strain PIK35): 91
- SI, HIV (HIV-1 strain NL4-3): >3
- SI, CHIKV (CHIKV strain Nic): 391

SMILES: Cc1cn([C@H]2C[C@H](N=[N+]=[N-])[C@@H](CO)O2)c(=O)[nH]c1=O [AZT, azidothymidine, reference compound]
- SI, HIV (HIV-1 strain NL4-3): >455

SMILES: CCCCCCOC(=O)c1c(Cl)c(Cl)c(Cl)c(Cl)c1-c1c2cc(I)c(=O)c(I)c-2oc2c(I)c(O)c(I)cc12 [2b, Rose Bengal N-Hexyl Ester, Monosodium Salt]
- SI, SARS-CoV-2 (SARS-CoV-2 strain PIK35): 146
- SI, HIV (HIV-1 strain NL4-3): 3.4
- SI, CHIKV (CHIKV strain Nic): 90,909

SMILES: CCCCOC(=O)c1c(Cl)c(Cl)c(Cl)c(Cl)c1-c1c2cc(I)c(=O)c(I)c-2oc2c(I)c(O)c(I)cc12 [2a, Rose Bengal N-Butyl Ester, Monosodium Salt]
- SI, SARS-CoV-2 (SARS-CoV-2 strain PIK35): 169
- SI, HIV (HIV-1 strain NL4-3): 2.4
- SI, CHIKV (CHIKV strain Nic): 1860

Structures can show the parent of a compound that is named as a salt.
